Assay results as given in ChEMBL document CHEMBL1125468, “Extraordinarily potent antimalarial compounds: new, structurally simple, easily synthesized, tricyclic 1,2,4-trioxanes” (J Med Chem, 1992).

Experiments:
[1] = Potency to inhibit African Sierra Leone(D-6) clone relative to artemisinin.; format: functional
Method in brief: (§1)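 Ratio of artemisinin IC50 to test-compound IC50, both measured in the same [3H]hypoxanthine microdilution assay against the named clone. Parasites were at 0.5% parasitemia and 1% hematocrit, exposed for 24 h at 37 °C under low oxygen, then labelled for 18–20 h. IC50s came from a four-parameter logistic fit of duplicate wells.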

[2] = Potency to inhibit Indochina(W-2) clone relative to artemisinin.; format: functional; method in brief: as §1

| SMILES | Relative potency [1] | Relative potency [2] |
| --- | --- | --- |
| CO[C@H]1O[C@]2(C)CC[C@H]3CCC[C@@H](CCOP(=O)(Oc4ccccc4)Oc4ccccc4)[C@]31OO2 | 2.3 | > 7 |
| CCOP(=S)(OCC)OCC[C@@H]1CCC[C@@H]2CC[C@]3(C)OO[C@]21[C@@H](OC)O3 | 1.1 | 3.5 |
